According to patent US20220023401A1 (priority 2020, published 2022):

Test system: Aβ1-42
Conditions: guinea pigs, 100 μg/0.5 mL in ISA 51 emulsion; for Aβ1-42 ELISA Log10 Titer, Geomean: group Geomean; for Aβ1-42 ELISA Log10 Titer: individual animals, listed as 57

## Aβ1-14-ϵK-Cholera Toxin Th
0 wpi
  Aβ1-42 ELISA Log10 Titer, Geomean: 0.773 Log10
  Aβ1-42 ELISA Log10 Titer: 0.836 Log10 and 1.111 Log10 and 0.497 Log10
4 wpi
  Aβ1-42 ELISA Log10 Titer, Geomean: 4.386 Log10
  Aβ1-42 ELISA Log10 Titer: 4.218 Log10 and 4.704 Log10 and 4.252 Log10
6 wpi
  Aβ1-42 ELISA Log10 Titer, Geomean: 4.921 Log10
  Aβ1-42 ELISA Log10 Titer: 4.735 Log10 and 5.357 Log10 and 4.698 Log10
8 wpi
  Aβ1-42 ELISA Log10 Titer, Geomean: 4.724 Log10
  Aβ1-42 ELISA Log10 Titer: 4.287 Log10 and 5.347 Log10 and 4.600 Log10

Values joined by “and” are separate entries in the source; they are usually repeats but may differ in a detail not shown here. Identical values can stand only once. Like-named read-outs stand apart in the source and are kept apart here.
